Data as given in PubChem BioAssay AID1259414 (Drosophila RNAi Screening Center, 2018).
The screen tested about 24,000 reagents; shown is an unselected part of those with a known target gene and a result. Over the whole deposit, about 1,210 (5%) are marked active. 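Inactive calls also include excluded dsRNAs with several or no targets, genes unexpressed in JW18, and well A1, regardless of score.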 Names joined by + are all predicted targets of the reagent.

Screen: 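Fly genes that alter Wolbachia amount inside host cells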 (primary screen)
Cells: Drosophila JW18 cells infected with Wolbachia
Reagents: long dsRNA against Drosophila genes, 0.25 µg dsRNA per well of a 384-well plate
Time to read-out: 5 days
Treatment: cells persistently infected with Wolbachia before knock-down; no added drug
Read-out: 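Automated imaging of bacterial rRNA staining divided by host cell count, reported as plate-normalised robust z-score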
Direction: Wolbachia per cell robust z: higher = more Wolbachia per host cell than the plate typical
Active means: 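Active if absolute robust z reaches 1.5 in two or more of three replicates, leaving out multi- or no-target dsRNAs, genes unexpressed in JW18 and A1 wells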

predicted target	DRSC id	Wolbachia per cell robust z, rep 1	Wolbachia per cell robust z, rep 2	Wolbachia per cell robust z, rep 3	call
Lsp1gamma (GeneID 38015)	DRSC08672	0.697	0.537	-1.33	inactive
Lsp1gamma (GeneID 38015)	DRSC25710	-1.15	0.546	0.626	inactive
Iswi (GeneID 36390)	DRSC07446	0.806	0.586	0.954	inactive
Iswi (GeneID 36390)	DRSC26047	0.836	0.743	0.374	inactive
Ste:CG33241 + Ste12DOR + Ste:CG33245 + 10 more	DRSC26515	-2.92	-0.351	-1.21	inactive
sofe (GeneID 32016)	DRSC19751	-0.645	-1.26	-0.965	inactive
Abi (GeneID 41718)	DRSC14099	0.959	0.757	0.307	inactive
Abi (GeneID 41718)	DRSC27275	-0.0765	1.96	1.19	inactive
MESR3 (GeneID 35116)	DRSC02463	0.29	1.83	-1.29	inactive
EMC8-9 (GeneID 37635)	DRSC04380	-0.754	1.03	0.478	inactive
CG5087 (GeneID 39035)	DRSC10479	0.19	0.255	-8.62	inactive
Odj (GeneID 42145)	DRSC16234	-0.641	-1.51	-0.413	inactive
CG15739 (GeneID 32146)	DRSC19705	0.405	-0.904	-0.0198	inactive
CG15739 (GeneID 32146)	DRSC28638	0.103	0.761	-0.521	inactive
CG15739 (GeneID 32146)	DRSC41574	-0.253	-0.136	0.0568	inactive
CG15873 (GeneID 37898)	DRSC04277	0.548	-0.353	0.548	inactive
ATP6AP2 (GeneID 41104)	DRSC16420	-0.138	-1.28	0.804	inactive
Alp10 (GeneID 38632)	DRSC09749	-0.201	-0.217	0.602	inactive
Alp10 (GeneID 38632)	DRSC29230	-0.072	0.298	1.02	inactive
Alp10 (GeneID 38632)	DRSC41597	0.474	-0.1	0.532	inactive
Nhe3 (GeneID 33939)	DRSC03380	-9.7	0.436	0.355	inactive
E(spl)m8-HLH (GeneID 43161)	DRSC16654	-0.286	0.283	1.55	inactive
E(spl)m8-HLH (GeneID 43161)	DRSC28065	0.916	0.187	-0.151	inactive
CG9743 (GeneID 43593)	DRSC16552	1.54	0.95	0.987	inactive
CG9743 (GeneID 43593)	DRSC28943	-0.585	-0.455	-1.09	inactive
CG32376 (GeneID 318002)	DRSC22754	-1.97	-1.61	-1.03	inactive
CG5376 (GeneID 42648)	DRSC15782	0.816	0.936	0.161	inactive
CG5376 (GeneID 42648)	DRSC29433	-0.401	-3.6	0.459	inactive
Membrin (GeneID 38614)	DRSC10448	0.158	-0.7	0.743	inactive
CG16756 (GeneID 31460)	DRSC18115	0.696	-0.85	1.08	inactive
CG14071 (GeneID 34507)	DRSC02374	-2.39	0.158	0.607	inactive
betaNACtes4 (GeneID 32389)	DRSC19801	0.856	-0.529	-1.96	inactive
CG9577 (GeneID 33016)	DRSC20693	-0.705	0.517	-0.212	inactive
CG9577 (GeneID 33016)	DRSC27691	-0.617	-0.665	-1.11	inactive
CG42782 (GeneID 10178908)	DRSC41361	-0.87	-3.08	-0.39	inactive
CG31326 (GeneID 41728)	DRSC16532	-0.0763	0.181	1.53	inactive
CG31326 (GeneID 41728)	DRSC26494	-2.91	-2.34	-1.85	inactive
CG3939 (GeneID 31295)	DRSC18498	-0.234	-2.74	-0.534	inactive
kmr (GeneID 5740131)	DRSC14827	-0.849	-1.07	0.169	inactive
kmr (GeneID 5740131)	DRSC14828	0.416	-0.083	0.447	inactive
kmr (GeneID 5740131)	DRSC16472	-11.2	0.34	-0.00997	inactive
kmr (GeneID 5740131)	DRSC25867	-0.556	0.605	-0.124	inactive
kmr (GeneID 5740131)	DRSC28945	-1.56	-2.32	-1.41	active
ppk7 (GeneID 33886)	DRSC03236	0.417	0.813	0.397	inactive
SppL (GeneID 43128)	DRSC15228	-5.1	0.361	0.043	inactive
CG42362 + CG42363	DRSC04265	1.27	0.101	-0.226	inactive
CG11170 (GeneID 37533)	DRSC04090	-5.83	0.5	0.424	inactive
CG11170 (GeneID 37533)	DRSC29191	-1.06	-0.358	1.16	inactive
CG43773 + CG43774	DRSC00287	-0.461	-0.819	1.43	inactive
Snx1 (GeneID 33560)	DRSC00531	0.236	0.79	1.4	inactive
Dph5 (GeneID 42663)	DRSC16653	-0.766	1.81	-0.352	inactive
Dph5 (GeneID 42663)	DRSC27824	-1.5	0.423	-0.528	inactive
JIL-1 (GeneID 39241)	DRSC11200	0.664	1.3	0.152	inactive
JIL-1 (GeneID 39241)	DRSC40737	-2.41	-0.444	-1.35	inactive
ck (GeneID 34882)	DRSC03509	0.126	-0.655	-0.544	inactive
ck (GeneID 34882)	DRSC40701	-0.768	-0.466	-0.151	inactive
Fip1 (GeneID 40569)	DRSC12147	-0.316	0.673	0.574	inactive
Tengl4 (GeneID 41321)	DRSC15620	0.577	-7.57	-0.0798	inactive
CG9547 (GeneID 33911)	DRSC03260	-5.91	-0.425	-1.31	inactive
CG9547 (GeneID 33911)	DRSC27269	-0.039	0.505	0.831	inactive
P5CS (GeneID 40443)	DRSC11831	-1.42	0.541	0.538	inactive
P5CS (GeneID 40443)	DRSC11832	0.932	1.24	-0.124	inactive
Atet (GeneID 33636)	DRSC00263	-3.9	1.06	1.08	inactive
CG14195 (GeneID 32911)	DRSC19550	-0.693	-1.54	-0.164	inactive
CG7271 (GeneID 40021)	DRSC22561	0.766	0.0924	0.326	inactive
RpL40 (GeneID 33629)	DRSC00782	1.62	1.47	2	active
CG31861 (GeneID 318988)	DRSC21665	-0.549	-0.036	-1.07	inactive
CG31861 (GeneID 318988)	DRSC29279	1.13	-0.453	-0.53	inactive
